Among the data in PubChem BioAssay AID504582 (Broad Institute, 2011) are growth rescue values, retold here.

The entries are a selection whose mix differs from that of the whole data set. Active and inactive are the calls of the source. Rule as the data show it: active = growth rescue above about 28% (passing the limit was not always enough); inconclusive = no clear call, values can overlap the other calls.

A short description of this assay: rescue of yeast from PfHsp40 toxicity, primary screen, S. cerevisiae, ATP luminescence (AID 504582).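 Also: yeast W303a lacking pdr1 and pdr3 grown in galactose medium; growth measured after three days at 30 °C.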 The following applies: S. cerevisiae expressing PfHsp40, growth rescue, at 12.5 µM, stronger effect = higher value.
Regarding `Nc1cccc2ccc([As](=O)(O)O)cc12`, the growth rescue was inactive: 1.61%.

As for `CCN(N=Nc1nonc1N)c1nonc1N`, the growth rescue was inactive: 2.27%.

For the compound `CC1=CC(=O)OC2CC3OC4C[C@@H](C)C5OC6CC7O[C@]8(C)C/C=C\C9OC%10CC%11OC(CC(C)CO)CC(O)[C@]%11(C)OC%10CC9OC8C[C@]7(C)O[C@]6(C)CCC5OC4C[C@]3(C)OC12` (some centres undefined), the growth rescue was inactive: -2.32%.

For `Clc1ccc(Cl)c(NC2=NCC(CBr)S2)c1` (centres undefined), the growth rescue is inactive: -0.113%.

`CN1CCCC(OC(=O)C(c2ccccc2)c2ccccc2)C1` (centres undefined): the growth rescue was inactive: -0.162%.

For `COc1ccccc1OP(=O)(Nc1ccc(C)cn1)Oc1ccccc1OC`, the growth rescue was inactive: -0.914%.

Turning to `CN(C(=O)Cc1ccc(Cl)c(Cl)c1)[C@H]1CCCC[C@H]1N1CCCC1`, the growth rescue was inactive: -1.17%.

For the compound `Cc1ccc(N/C(=N/P(=O)(N2CCOCC2)N2CCOCC2)N2CCOCC2)cc1`, the growth rescue is inactive: -1.51%.

As for `C[C@H]1[C@@H](OS(=O)(=O)O)C[C@@H]2C[C@H]([C@@H](O)c3cc(=O)[nH]c(=O)[nH]3)NC3=NC[C@H]1N32`, the growth rescue was inactive: 0.837%.

Turning to `NC(=O)c1cc([N+](=O)[O-])cc([N+](=O)[O-])c1N`, the growth rescue was inactive: -0.796%.

With `CC(O)C1C=CC=CC(=O)OC2CC3OC4C5OC5(C)C(O)CC4(COC(=O)C(O)C(C)CCO1)C2(C)C31CO1` (centres undefined), the growth rescue was inactive: 1.27%.

Consider `COc1ccc(O)c2c(=O)c3c(OC)cc4c(c3oc12)C1C=COC1O4` (centres undefined), for which the growth rescue was inactive: -0.0325%.

In the case of `Oc1ccccc1CNc1ccccn1`, the growth rescue is inactive: -1.07%.

As to `O=C(NC(Sc1ccncn1)C(Cl)(Cl)Cl)c1ccccc1` (centres undefined), the growth rescue was inactive: -0.0395%.

Turning to `CC(C)CC(=O)NC(Sc1ccc(Cl)cc1)C(Cl)(Cl)Cl` (centres undefined), the growth rescue is inactive: -0.475%.

For `Nc1cc(N)c2nonc2c1[N+](=O)[O-]`, the growth rescue is inactive: -0.482%.

In the case of `CC(C)(C)C(=O)NC(Sc1ccccc1)C(Cl)(Cl)Cl` (centres undefined), the growth rescue is inactive: -0.739%.

Turning to `CCc1cc(O)c([N+](=O)[O-])c(C)c1[N+](=O)[O-]`, the growth rescue is inactive: 0.232%.

As to `O=P1(Nc2nc3ccc(Cl)cc3s2)COc2ccccc2O1` (centres undefined), the growth rescue is inactive: 0.765%.

In the case of `CCOc1ccc(C2=NCC(CBr)S2)cc1` (centres undefined), the growth rescue is inactive: 0.438%.

As to `CC(=O)Nc1ccc([As](=O)(O)O)c(O)c1`, the growth rescue is inactive: 1.01%.

For `CC(=O)Nc1ccc(Oc2c([N+](=O)[O-])cc([N+](=O)[O-])cc2[N+](=O)[O-])cc1`, the growth rescue was inactive: 0.236%.

With `C=C(CO)CC1CC(O)[C@]2(C)OC3CC4OC5C[C@]6(C)O[C@]7(C)CCC8OC9C[C@]%10(C)OC%11C(C)=CC(=O)OC%11CC%10OC9C[C@@H](C)C8OC7CC6O[C@]5(C)C/C=C\C4OC3CC2O1` (some centres undefined), the growth rescue was inactive: -2.41%.

On to `Cc1ccccc1CN(C)C(=O)COC(=O)C(O)(c1ccccc1)c1ccccc1`, for which the growth rescue was inactive: 0.713%.

Consider `C[C@@H]1C=CCP(=O)(Oc2ccccc2)O1` (some centres undefined), for which the growth rescue was inactive: 5.99%.

As to `C[C@H]1OP(=O)(Oc2ccccc2)C[C@@H]2O[C@@H]21` (some centres undefined), the growth rescue is inactive: -0.81%.

In the case of `N#C/C(=C\c1ccc(N(CCBr)CCBr)cc1)C(N)=O`, the growth rescue is inactive: 0.465%.

For `CC(=O)c1ccc(N2CC2c2ccncc2)cc1` (centres undefined), the growth rescue was inactive: -0.455%.

As to `COC(=O)C1(C)COP(=O)(NCc2ccccc2)OC1` (centres undefined), the growth rescue is inactive: 1.26%.

`C=C(COC(=O)CCC(=O)O)CC1CC(O)[C@]2(C)OC3CC4OC5C[C@]6(C)O[C@]7(C)CCC8OC9C[C@]%10(C)OC%11C(C)=CC(=O)OC%11CC%10OC9C[C@@H](C)C8OC7CC6O[C@]5(C)C/C=C\C4OC3CC2O1` (some centres undefined): the growth rescue was inactive: -0.544%.

With `O=P1(N(CCCl)CCCl)OCCC2CCCCN21` (centres undefined), the growth rescue was inactive: 0.485%.

As to `c1ccc(-c2nn[nH]n2)c(-c2nn[nH]n2)c1`, the growth rescue was inactive: -1.76%.

For the compound `Cc1ccc(NP(=O)(Oc2cccc(C)c2)Oc2cccc(C)c2)nc1`, the growth rescue is inactive: 2.99%.

`O=C(NC1CCS(=O)(=O)C1)NP(=S)(Oc1ccccc1)Oc1ccccc1` (centres undefined): the growth rescue was inactive: 2.92%.

As for `CCNC(=S)/N=C(\N)N[N+](=O)[O-]`, the growth rescue is inactive: 0%.

As to `Cc1ccccc1OP(=O)(Nc1ccccn1)Oc1ccccc1C`, the growth rescue is inactive: 0.337%.

On to `CC(NC(=O)COC(=O)C(O)(c1ccccc1)c1ccccc1)c1ccccc1` (centres undefined), for which the growth rescue was inactive: -0.564%.

In the case of `CN(C)C(=O)Oc1noc2ccccc12`, the growth rescue is inactive: 0.444%.

`O=c1c2cc([N+](=O)[O-])ccc2[nH]c2c([N+](=O)[O-])cc([N+](=O)[O-])cc12`: the growth rescue was inactive: -0.902%.

Consider `O=C(OC1CN2CCC1CC2)c1ccccc1` (centres undefined), for which the growth rescue was inactive: 0.536%.

Consider `CCC(=O)N1C2C3N(C(=O)CC)C1C1N(C(=O)CC)C(C(N1C(=O)CC)N3C(=O)CC)N2C(=O)CC`, for which the growth rescue is inactive: -0.068%.

For `COC(=O)c1cc2c(s1)N=C(c1ccccc1)N(C)P2(=O)N1CCOCC1` (centres undefined), the growth rescue was inactive: 1.18%.

On to `Cc1ccc(OP(=O)(Nc2ccccn2)Oc2ccc(C)cc2)cc1`, for which the growth rescue was active: 82.3%.

Regarding `CC(=O)NC(SC(=S)N(CC(C)C)CC(C)C)C(Cl)(Cl)Cl` (centres undefined), the growth rescue was inactive: 2.99%.

`O=P(Nc1nc2ccccc2s1)(c1ccccc1)c1ccccc1`: the growth rescue is inactive: -2.72%.

As to `C[C@H]1OP(=O)(Oc2ccccc2)[C@H](O)[C@H](O)[C@H]1N=[N+]=[N-]` (some centres undefined), the growth rescue was inactive: -1.12%.

Regarding `O=P(Nc1ccccn1)(c1ccc(Br)cc1)c1ccc(Br)cc1`, the growth rescue was inactive: -1.06%.

For the compound `COc1ccc(N)c([N+](=O)[O-])c1[N+](=O)[O-]`, the growth rescue was inactive: 0.354%.

On to `O=C(OC1CN2CCC1CC2)c1cccc(Cl)c1` (centres undefined), for which the growth rescue is inactive: -1.08%.

Take `Nc1ccc([As](=O)(O)c2ccc([N+](=O)[O-])cc2)cc1`: the growth rescue is inactive: -1.99%.

Take `C(Cc1nn[nH]n1)Cc1nn[nH]n1`: the growth rescue is inactive: -1.73%.

Turning to `O=[As](O)(c1ccccc1)c1ccc(O)cc1`, the growth rescue is inactive: 1.09%.

`O=[N+]([O-])c1ncn(CCn2cnc([N+](=O)[O-])n2)n1`: the growth rescue is inactive: -0.836%.

For the compound `CC(=O)NC(SC(=S)N(C)C)C(Cl)(Cl)Cl` (centres undefined), the growth rescue was inactive: 8.11%.

As for `O=[N+]([O-])c1ccc(O)c(/C=N/Nc2ccc([N+](=O)[O-])cc2[N+](=O)[O-])c1`, the growth rescue is inactive: -2.52%.

As for `c1nnnn1CCn1cnnn1`, the growth rescue was inactive: 0.0895%.

For the compound `O=P(Nc1nccs1)(c1ccccc1)c1ccccc1`, the growth rescue is inactive: 0.105%.

For `CC(C)C(=O)NC(Sc1ccccc1)C(Cl)(Cl)Cl` (centres undefined), the growth rescue is inactive: 0.04%.

For the compound `Clc1n[nH]nc1-c1nn[nH][15n]1`, the growth rescue was inactive: 0.658%.

Turning to `CC(C)(C)C(=O)NC(Sc1ncccn1)C(Cl)(Cl)Cl` (centres undefined), the growth rescue was inactive: -1.09%.

As to `CCC1=CC2Cc3nc4ccc(Cl)cc4c(N)c3C(C1)C2` (centres undefined), the growth rescue is inactive: 0.416%.

For `O=P1(Nc2ccccn2)COc2ccccc2OC1`, the growth rescue is inactive: -0.798%.

With `CCOP(=O)(NC(=NC(C)c1ccccc1)NC(C)c1ccccc1)OCC` (centres undefined), the growth rescue was inactive: -0.274%.

As to `CCOP(=O)(Nc1ccc(C)cn1)OCC`, the growth rescue was inactive: -0.936%.

In the case of `CN(C(=O)Cc1ccc(Cl)c(Cl)c1)[C@@H]1CCCC[C@H]1N1CCCC1`, the growth rescue is inactive: 0.187%.

Turning to `CC(C)/C=N\N=C(\N)N[N+](=O)[O-]`, the growth rescue is inactive: -0.463%.

As to `CC1(CBr)Cn2c(nc3ccccc3c2=O)S1` (centres undefined), the growth rescue is inactive: -0.181%.

In the case of `C=C(C=O)CC1CC(O)[C@]2(C)OC3CC4OC5C[C@]6(C)O[C@]7(C)CCC8OC9C[C@]%10(C)OC%11C(C)=CC(=O)OC%11CC%10OC9C[C@@H](C)C8OC7CC6O[C@]5(C)CC5OC5C4OC3CC2O1` (some centres undefined), the growth rescue was inactive: -1.91%.

As for `O=C(/C=C/c1ccccc1)OC1CN2CCC1CC2` (centres undefined), the growth rescue was inactive: 0.726%.

Turning to `CCCC1OP(=O)(Nc2ccccc2)OCC1CC` (centres undefined), the growth rescue was inactive: -0.811%.

Take `Cc1nn(-c2ccccc2)c2c1P(=O)(N1CCOCC1)N(C)C(c1ccccc1)=N2` (centres undefined): the growth rescue was inactive: -0.941%.

In the case of `Cc1ccc(C(=O)OC2CN3CCC2CC3)cc1` (centres undefined), the growth rescue is inactive: 0.198%.

On to `CC1CCC(C(C)C)C(OP(=O)(Nc2ccccn2)c2ccccc2)C1` (centres undefined), for which the growth rescue is inactive: 1.19%.

As for `Nc1cccc([As](=O)(O)c2ccccc2)c1`, the growth rescue was inactive: -0.484%.

Turning to `NS(=O)(=O)c1cccc(NC(=O)COC(=O)C(O)(c2ccccc2)c2ccccc2)c1`, the growth rescue is inactive: -0.225%.

Consider `O=P1(Nc2ccc(Br)cn2)COc2ccccc2OC1`, for which the growth rescue is inactive: 0.442%.

For `O=[As](O)(c1cccs1)c1cccs1`, the growth rescue is inactive: -1.57%.

Take `Cc1ccc(OCC(=O)OC2CN3CCC2CC3)cc1` (centres undefined): the growth rescue was inactive: -0.087%.

Regarding `O=P1(Nc2ncccn2)COc2ccccc2OC1`, the growth rescue is inactive: -0.493%.

For `O=C(O)COc1ccc([As](=O)(O)O)cc1[N+](=O)[O-]`, the growth rescue is inactive: -0.386%.

For `Nc1ccccc1[As](=O)(O)c1ccccc1`, the growth rescue is inactive: 0.369%.

Consider `CCOP1(=S)c2c(C)nn(CCC#N)c2N=C(c2ccccc2F)N1C` (centres undefined), for which the growth rescue is inactive: 0.694%.

`O=P(Nc1nccs1)(c1ccccc1)c1nc2ccccc2s1` (centres undefined): the growth rescue was inactive: 1.61%.

Turning to `CC1=CC(=O)OC2CC3OC4C[C@@H](C)C5OC6CC7O[C@]8(C)C/C=C\C9OC%10CC%11OC(CC(C)C%12OCCO%12)CC(O)[C@]%11(C)OC%10CC9OC8C[C@]7(C)O[C@]6(C)CCC5OC4C[C@]3(C)OC12` (some centres undefined), the growth rescue was inactive: -0.782%.

Turning to `O=P(Nc1nccs1)(Oc1ccccc1)Oc1ccccc1`, the growth rescue was inactive: -1.29%.

Take `CS(=O)(=O)c1cc([N+](=O)[O-])c2no[n+]([O-])c2c1`: the growth rescue is inactive: 0.069%.

As for `N#CCCN(C(=O)COC(=O)C(O)(c1ccccc1)c1ccccc1)c1ccc(F)cc1`, the growth rescue was inactive: -0.894%.

For the compound `CCOP1(=S)c2c(C)nn(CCC#N)c2N=C(c2ccc(F)cc2)N1C` (centres undefined), the growth rescue was inactive: 0.065%.

With `CN(C(=O)Cc1ccccc1)[C@@H]1CC[C@]2(CCCO2)C[C@H]1N1CCCC1`, the growth rescue is inactive: -0.509%.
